Experimental data published in publication PMC7494861, “Characterization of the nucleotide-binding domain NsrF from the BceAB-type ABC-transporter NsrFP from the human pathogen Streptococcus agalactiae” (Scientific Reports, 2020).

Test system: Nc1ncnc2c1ncn2[C@@H]1O[C@H](COP(=O)(O)OP(=O)(O)OP(=O)(O)O)[C@@H](O)[C@H]1O
Assay: purified protein
Conditions: 100 mM HEPES pH 7, 10 mM Mg2+, 0 mM NaCl, 30 °C, cooperative

Substance: SaNsrF (SaNsrFWT) (Streptococcus agalactiae 2603V/R)
- K0.5: 0.41 ± 0.05 mM
- Vmax: 190.9 ± 10.0 nmol/min/mg
